According to patent US20170073375A1 (University of Washington, published 2017):

How the values were obtained:
[1] = target: Hemagglutinin (HA) of A/South Carolina/1/1918 (H1N1) (Influenza A virus A/South …, UniProt Q9WFX3 18-520)
[2] = target: Hemagglutinin (HA) of A/turkey/Wisconsin/1/1966 H9N2 (Influenza A virus …, UniProt P03457 19-526)
[3] = target: Hemagglutinin (HA) of A/duck/Alberta/60/1976 H12N5 (Influenza A virus …, UniProt P03446 17-530)

B1: HB36.5 (designed binder)
chain: MSNAMDGQQLNRLLLEWIGAWDPFGLGKDAYDYEAAEVLKAVYETESAFDLAMRIHWIYNFAFKRQIPFAHAQKLARRLLELKQAASSPLP
[1]
  Kd: 1.5 nM
[2]
  Kd: 82.8 nM
[3]
  Kd: 634 nM
